A mixed list of measured activities; the numbers were collected in NIAID ChemDB.

Shared fields: growth or infection tests; species: Human cytomegalovirus; method: plaque count; endpoint: EC50

ECn is the concentration giving n% inhibition of infection, replication or growth. Rows are shuffled and stem from different studies.

{"smiles": "OC[C@H]1O[C@@H](n2c(Br)nc3cc(Cl)c(Cl)cc32)[C@H](O)[C@@H]1O", "cells": "HFF", "strain or isolate": "C9209/1-4-4 drug-resistant", "result": "1.5 µM"}
{"smiles": "Nc1nc2c(ncn2COC(CO)CO)c(=O)[nH]1", "cells": "HFF", "strain or isolate": "R56 (BDCRB- maribavir-resistant)", "result": "13.3 µM"}
{"smiles": "CC(C)Nc1nc2cc(Cl)c(Cl)cc2n1[C@H]1O[C@@H](CO)[C@H](O)[C@@H]1O", "cells": "MRC-5", "strain or isolate": "C8302", "result": "0.16 µM"}
{"smiles": "Nc1ccn(C[C@@H](CO)OCP(=O)(O)O)c(=O)n1", "cells": "HELF", "strain or isolate": "DAVIS", "result": "0.28 µM"}
{"smiles": "CN(C)c1cccc2c(S(=O)(=O)Nc3ccc(NC(=O)C(C)(C)CO)cc3)cccc12", "strain or isolate": "WILD TYPE", "result": "0.44 µM"}
{"smiles": "Nc1nc2c(ncn2C=C2CC2CO)c(=O)[nH]1", "cells": "HFF", "strain or isolate": "C9208/5-4-2", "result": "9.4 µM"}
{"smiles": "CCCCCCCCCCCCCCCCCCOCCOP1(=O)CO[C@@H](Cn2ccc(N)nc2=O)CO1", "cells": "MRC-5", "strain or isolate": "C8805/37-1-1 (drug-resistant mutant)", "result": "0.001 µM"}
{"smiles": "Brc1ccc2cc(-c3ccccc3)cn2c1", "cells": "MRC-5", "strain or isolate": "AD169", "result": ">100 µM"}
{"smiles": "C/C(=N/Nc1nc(-c2ccccc2)cs1)c1ccc(NC(=O)CN2C(=O)c3ccccc3S2(=O)=O)cc1", "cells": "HEL", "strain or isolate": "AD169", "result": "20 µM"}
{"smiles": "Nc1ccn([C@@H]2C=C(CO)[C@@H](O)[C@H]2O)c(=O)n1", "cells": "HEL", "strain or isolate": "AD169", "result": "0.6 µg/mL"}
{"smiles": "O=C(NCc1ccc(Cl)cc1)c1c[nH]c2ccc(CCCO)cc2c1=O", "strain or isolate": "P53 GDG-resistant", "result": "0.4 µM"}
{"smiles": "C=Cc1cn([C@@H]2O[C@H](CO)[C@@H](O)[C@@H]2O)c(=S)nc1N", "cells": "MRC-5", "strain or isolate": "AD169", "result": ">266.3 µM"}
{"smiles": "O=C(O)P(=O)(O)O", "cells": "HFF", "strain or isolate": "4760RECPOLA1-1-1 (foscarnet-resistant)", "result": "75 µg/mL"}
{"smiles": "CN(C)c1cccc2c(S(=O)(=O)Nc3ccc(NC(=O)C(C)(C)CO)cc3)cccc12", "strain or isolate": "TOWNE", "result": "1.03 µM"}
{"smiles": "COc1ccc(/C=N/NC(=O)c2ccccc2S(=O)(=O)NC(C)C)cc1", "cells": "HEL", "strain or isolate": "AD169", "result": ">100 µM"}
{"smiles": "N#Cc1ccn2cc(-c3ccccc3)cc2c1", "cells": "MRC-5", "strain or isolate": "AD169", "result": ">100 µM"}
{"smiles": "C[C@H]1O[C@@H](n2c(Cl)nc3cc(Cl)c(Cl)cc32)[C@H](O)C1O", "cells": "HFF", "strain or isolate": "Isolate B11 mutation D344E", "result": "2.9 µM"}
{"smiles": "O=c1[nH]c(=S)n([C@@H]2O[C@H](CO)[C@@H](O)[C@@H]2O)cc1CCO", "cells": "MRC-5", "strain or isolate": "T-137", "result": ">213 µM"}
{"smiles": "O[C@@H]1[C@H](O)[C@H](O)CO[C@H]1n1c(Br)nc2cc(Cl)c(Cl)cc21", "cells": "HFF", "strain or isolate": "VR4955R (drug-resistant)", "result": "3.5 µM"}
{"smiles": "Nc1nc(=S)n([C@@H]2O[C@H](CO)[C@@H](O)[C@@H]2O)cc1/C=C/Br", "cells": "MRC-5", "strain or isolate": "T-137", "result": ">213 µM"}
{"smiles": "Nc1nc(NC2CC2)c2ncn(C=C3CC3CO)c2n1", "cells": "HFF", "strain or isolate": "C8805/37-1-1", "result": "10.3 µM"}
{"smiles": "N#Cc1ccc(-c2cc3ccccn3c2)cc1", "cells": "MRC-5", "strain or isolate": "AD169", "result": ">100 µM"}
{"smiles": "Cc1ccc(S(=O)(=O)NNC(=O)c2ccccc2S(=O)(=O)NC(C)C)cc1", "cells": "HEL", "strain or isolate": "AD169", "result": ">100 µM"}
{"smiles": "Nc1nc2c(ncn2C=C2CC2CO)c(=O)[nH]1", "strain or isolate": "VR5120 (ganciclovir-resistant)", "result": "2.2 µM"}
{"smiles": "CC(C)NS(=O)(=O)c1ccccc1C(=O)N/N=C/c1ccc(-c2cccs2)cc1", "cells": "HEL", "strain or isolate": "DAVIS", "result": ">100 µM"}
{"smiles": "C[C@@H]1O[C@@H](n2c(Cl)nc3cc(Cl)c(Cl)cc32)[C@H](O)[C@@H]1O", "strain or isolate": "1117 3-1-2 (CDV-resistant)", "result": "0.96 µM"}
{"smiles": "Nc1nc2c(ncn2COC(CO)CO)c(=O)[nH]1", "cells": "MRC-5", "strain or isolate": "AD169", "result": "6.3 µM"}
{"smiles": "CCc1ccc2cc(-c3ccccc3)cn2c1", "cells": "MRC-5", "strain or isolate": "AD169", "result": "10 µM"}
{"smiles": "CCCCCCCCCCCCCCCCCCOCCOP(=O)(O)CO[C@H](CO)Cn1ccc(N)nc1=O", "cells": "MRC-5", "strain or isolate": "AD169", "result": "0.0009 µM"}
{"smiles": "Clc1ccc(-c2cc3ccccn3c2)c(Cl)c1", "cells": "MRC-5", "strain or isolate": "AD169", "result": ">100 µM"}
{"smiles": "Cc1cn([C@H]2C[C@H](O)[C@@H](CO)O2)c(=S)nc1N", "cells": "MRC-5", "strain or isolate": "T-137", "result": ">277.4 µM"}
{"smiles": "Nc1nc2c(ncn2COC(CO)CO)c(=O)[nH]1", "cells": "HFF", "strain or isolate": "Isolate B11 mutation D344E", "result": "3.1 µM"}
{"smiles": "CCc1cn([C@@H]2O[C@H](CO)[C@@H](O)[C@@H]2O)c(=S)[nH]c1=O", "cells": "MRC-5", "strain or isolate": "93-1R", "result": ">213 µM"}
{"smiles": "Nc1ccn(C[C@@H](CO)OCP(=O)(O)O)c(=O)n1", "cells": "MRC-5", "strain or isolate": "759D100 drug-resistant mutant", "result": "2 µM"}
{"smiles": "CC(O)c1cn([C@@H]2O[C@H](CO)[C@@H](O)[C@@H]2O)c(=S)[nH]c1=O", "cells": "MRC-5", "strain or isolate": "93-1R", "result": ">213 µM"}
{"smiles": "c1ccn2cc(-c3ccoc3)cc2c1", "cells": "MRC-5", "strain or isolate": "AD169", "result": "50 µM"}
{"smiles": "Cc1cn([C@@H]2O[C@H](CO)[C@@H](O)[C@@H]2O)c(=S)nc1N", "cells": "MRC-5", "strain or isolate": "AD169", "result": ">264.9 µM"}
{"smiles": "Nc1nc2c(ncn2COC(CO)CO)c(=O)[nH]1", "cells": "HFF", "strain or isolate": "Coffman", "result": "11.5 µM"}
{"smiles": "CCOP(=O)(O)CCC(CO)OCn1cnc2c(=O)[nH]c(N)nc21", "cells": "MRC-5", "strain or isolate": "TOWNE", "result": "6 µg/mL"}
{"smiles": "CC(O)c1cn([C@@H]2O[C@H](CO)[C@@H](O)[C@@H]2O)c(=S)nc1N", "cells": "MRC-5", "strain or isolate": "T-137", "result": "159.1 µM"}
{"smiles": "COC(=O)c1cccn2cc(-c3ccccc3)cc12", "cells": "MRC-5", "strain or isolate": "AD169", "result": ">100 µM"}
{"smiles": "O=C(O)P(=O)(O)O", "strain or isolate": "AD169", "result": "50 µM"}
{"smiles": "Nc1nc2c(ncn2COC(CO)CO)c(=O)[nH]1", "cells": "HS68", "strain or isolate": "AD169", "result": "0.3 µg/mL"}
{"smiles": "CC(=O)c1c(-c2ccc(C#N)cc2)cc2ccccn12", "cells": "MRC-5", "strain or isolate": "AD169", "result": ">100 µM"}

The first 2 rows once more:

smiles,cells,strain or isolate,result
OC[C@H]1O[C@@H](n2c(Br)nc3cc(Cl)c(Cl)cc32)[C@H](O)[C@@H]1O,HFF,C9209/1-4-4 drug-resistant,1.5 µM
Nc1nc2c(ncn2COC(CO)CO)c(=O)[nH]1,HFF,R56 (BDCRB- maribavir-resistant),13.3 µM